Record: PubChem BioAssay AID504761 (Drosophila RNAi Screening Center, 2011)
In all, the deposit lists about 22,000 reagents; shown is a random part of those with a known target gene and a result. Over the whole deposit, 116 (0.52%) were called active. 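Calls depend on retest data that are not deposited; infection was ranked per plate without normalising between plates; the unit of the infection score is not given.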 The raw values are shown without normalisation. Reagents against one gene are numbered here. A plus sign joins genes that one reagent is predicted to hit. Not stated in the record: the amount of reagent, the time to read-out.

Test: 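Insect host genes that dengue virus relies on to spread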 (primary screen)
Cells: D.Mel-2 cells from Drosophila
Reagent: long dsRNA against Drosophila genes
Conditions: infection with dengue virus type 2; dose and infection time not stated
Measurement: 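Cells stained for dengue envelope protein and imaged; percent of infected cells per well on duplicate plates, ranked by infection, with stained nuclei counted for cell number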
Scale: infection score: higher = more virus-infected cells; cell count: higher = more cells in the well
Hit rule: 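Very low infection ranking in both replicate wells (chance probability at most 0.065), then a retest showing infection dropped 1.5-fold or more at p below 0.05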
Meaning of the calls: active = confirmed: knock-down lowers infection; inactive = not picked or not confirmed

no.	target	reagent no.	infection score, replicate 1	infection score, replicate 2	cell count, replicate 1	cell count, replicate 2	Outcome
1	ana2 (anastral spindle 2)	1	20.7	11.7	6331	6891	inactive
2	ana2 (anastral spindle 2)	2	3.25	2.98	6762	6890	inactive
3	CG15615	1	10.2	9.5	6670	6704	inactive
4	CG15615	2	16.8	11.4	4436	5424	inactive
5	mdlc (midlife crisis)	1	7.74	6.9	6462	6410	inactive
6	mdlc (midlife crisis)	2	19.9	2.27	4204	572	inactive
7	Gr64e + Gr64d	1	9.83	14.3	5360	5139	inactive
8	Ctps (CTP synthase)	1	1.46	0.98	6015	6142	inactive
9	Ctps (CTP synthase)	2	3.45	4.99	6607	6507	inactive
10	Ctps (CTP synthase)	3	0.55	0.88	6001	6491	inactive
11	CG11404	1	7.39	15.3	6086	6389	inactive
12	CG11404	2	8.42	14.7	6686	6650	inactive
13	PKD (Protein Kinase D)	1	2.87	1.96	6691	6016	inactive
14	a10 (antennal protein 10)	1	2.21	2.08	6386	6779	inactive
15	CG42663	1	7.88	6.3	6814	6859	inactive
16	CG42663	2	10.5	7.57	7053	7107	inactive
17	CG42663	3	3.02	8.31	6288	6315	inactive
18	CG5199	1	5.24	2.84	5880	5960	inactive
19	CG11815	1	2.33	2.67	5782	6699	inactive
20	CG11815	2	31.5	12	5355	5687	inactive
21	CG11125	1	9.76	6.57	5668	6717	inactive
22	Sgp (Sgroppino)	1	4.2	13.2	6245	5458	inactive
23	CG33287	1	0.32	14	6344	6358	inactive
24	PolI (DNA polymerase iota)	1	8.39	10	6674	1189	inactive
25	tim (timeless)	1	1.12	2.64	6489	5878	inactive
26	CG12374	1	22.1	17.9	5922	6801	inactive
27	Ppox (Protoporphyrinogen oxidase)	1	10.5	10.2	4950	4154	inactive
28	yin	1	3.27	8.28	6549	6174	inactive
29	yin	2	5.35	6.74	6782	2595	inactive
30	CG13258	1	14.4	17.2	4007	4631	inactive
31	Pif1A + Pif1B	1	2.26	4.85	6320	6329	inactive
32	Pif1A + Pif1B	2	8.48	5.44	7149	6833	inactive
33	Pif1A + Pif1B	3	0.41	6.68	6335	6211	inactive
34	CG30103	1	21.8	26.7	5449	5774	inactive
35	CG30103	2	13.6	6.81	6333	6550	inactive
36	Nos (Nitric oxide synthase)	1	15.4	8.52	5928	5954	inactive
37	Hsp110 (Heat shock protein 110)	1		10.9	213	5162	inactive
38	Hsp110 (Heat shock protein 110)	2	0.77	5.78	6332	5670	inactive
39	CG17929	1	1.81	6.54	6359	5518	inactive
40	CG17300	1	2.97	1.97	6575	6558	inactive
41	CG17300	2	11	1.69	4275	1122	inactive
42	Lip1 (Lipase 1)	1	5.72	4.34	6086	6471	inactive
43	CG43658	1	1.54	4.52	6799	6901	inactive
44	CG43658	2	25.4	3.9	6088	6256	inactive
45	Bap55 (Brahma associated protein 55kD)	1	21.5	16.8	2866	3304	inactive
46	CG31855	1	9.01	6.63	6306	6742	inactive
47	CG31855	2	1.62	19	6473	5646	inactive
48	Ir8a (Ionotropic receptor 8a)	1	11	13.6	5280	5566	inactive
49	Ir8a (Ionotropic receptor 8a)	2	4.52	36.9	642	4738	inactive
50	d-cup (davis-cup)	1	5.38	7.41	6195	6164	inactive
51	CG8854	1	9.03	5.8	5992	6656	inactive
52	CG8854	2	5.72	3.29	6331	5831	inactive
53	CG5116	1	4.69	8.61	6969	6297	inactive
54	CG16957	1	2.3	3.27	6608	6566	inactive
55	Ncc69 (sodium chloride cotransporter 69)	1	10.3	3.1	6365	6507	inactive
56	Ncc69 (sodium chloride cotransporter 69)	2	11.4	3.33	6232	6610	inactive
57	Ncc69 (sodium chloride cotransporter 69)	3	2.1	10.6	7152	6441	inactive
58	AOX1 (Aldehyde oxidase 1)	1	13.5	12.2	6257	6475	inactive
59	AOX1 (Aldehyde oxidase 1)	2	16.8	22.3	3272	4533	inactive

Already shown: an excerpt of the list.
no.	target	reagent no.	infection score, replicate 1	infection score, replicate 2	cell count, replicate 1	cell count, replicate 2	Outcome
51	CG8854	1	9.03	5.8	5992	6656	inactive
52	CG8854	2	5.72	3.29	6331	5831	inactive
53	CG5116	1	4.69	8.61	6969	6297	inactive
54	CG16957	1	2.3	3.27	6608	6566	inactive
55	Ncc69 (sodium chloride cotransporter 69)	1	10.3	3.1	6365	6507	inactive
56	Ncc69 (sodium chloride cotransporter 69)	2	11.4	3.33	6232	6610	inactive
57	Ncc69 (sodium chloride cotransporter 69)	3	2.1	10.6	7152	6441	inactive
58	AOX1 (Aldehyde oxidase 1)	1	13.5	12.2	6257	6475	inactive
